# B1: Q9NTI5 2xPhospho [S/Y/T] (protein, UniProt Q9NTI5 1-1447, looked up)
# Sister chromatid cohesion …: MAHSKTRTNDGKITYPPGVKEISDKISKEEMVRRLKMVVKTFMDMDQDSEEEKELYLNLALHLASDFFLKHPDKDVRLLVACCLADIFRIYAPEAPYTSPDKLKDIFMFITRQLKGLEDTKSPQFNRYFYLLENIAWVKSYNICFELEDSNEIFTQLYRTLFSVINNGHNQKVHMHMVDLMSSIICEGDTVSQELLDTVLVNLVPAHKNLNKQAYDLAKALLKRTAQAIEPYITNFFNQVLMLGKTSISDLSEHVFDLILELYNIDSHLLLSVLPQLEFKLKSNDNEERLQVVKLLAKMFGAKDSELASQNKPLWQCYLGRFNDIHVPIRLECVKFASHCLMNHPDLAKDLTEYLKVRSHDPEEAIRHDVIVSIVTAAKKDILLVNDHLLNFVRERTLDKRWRVRKEAMMGLAQIYKKYALQSAAGKDAAKQIAWIKDKLLHIYYQNSIDDRLLVERIFAQYMVPHNLETTERMKCLYYLYATLDLNAVKALNEMWKCQNLLRHQVKDLLDLIKQPKTDASVKAIFSKVMVITRNLPDPGKAQDFMKKFTQVLEDDEKIRKQLEVLVSPTCSCKQAEGCVREITKKLGNPKQPTNPFLEMIKFLLERIAPVHIDTESISALIKQVNKSIDGTADDEDEGVPTDQAIRAGLELLKVLSFTHPISFHSAETFESLLACLKMDDEKVAEAALQIFKNTGSKIEEDFPHIRSALLPVLHHKSKKGPPRQAKYAIHCIHAIFSSKETQFAQIFEPLHKSLDPSNLEHLITPLVTIGHIALLAPDQFAAPLKSLVATFIVKDLLMNDRLPGKKTTKLWVPDEEVSPETMVKIQAIKMMVRWLLGMKNNHSKSGTSTLRLLTTILHSDGDLTEQGKISKPDMSRLRLAAGSAIVKLAQEPCYHEIITLEQYQLCALAINDECYQVRQVFAQKLHKGLSRLRLPLEYMAICALCAKDPVKERRAHARQCLVKNINVRREYLKQHAAVSEKLLSLLPEYVVPYTIHLLAHDPDYVKVQDIEQLKDVKECLWFVLEILMAKNENNSHAFIRKMVENIKQTKDAQGPDDAKMNEKLYTVCDVAMNIIMSKSTTYSLESPKDPVLPARFFTQPDKNFSNTKNYLPPEMKSFFTPGKPKTTNVLGAVNKPLSSAGKQSQTKSSRMETVSNASSSSNPSSPGRIKGRLDSSEMDHSENEDYTMSSPLPGKKSDKRDDSDLVRSELEKPRGRKKTPVTEQEEKLGMDDLTKLVQEQKPKGSQRSRKRGHTASESDEQQWPEEKRLKEDILENEDEQNSPPKKGKRGRPPKPLGGGTPKEEPTMKTSKKGSKKKSGPPAPEEEEEEERQSGNTEQKSKSKQHRVSRRAQQRAESPESSAIESTQSTPQKGRGRPSKTPSPSQPKKNVRVGRSKQAATKENDSSEEVDVFQGSSPVDDIPQEETEEEEVSTVNVRRRSAKRERR
# modifications: 2x phospho
# B2: A1L390 2xPhospho [S1183(98.5); S/T] (protein, UniProt A1L390 1-1219, looked up)
# Pleckstrin homology …: MPVSTSLHQDGSQERPVSLTSTTSSSGSSCDSRSAMEEPSSSEAPAKNGAGSLRSRHLPNSNNNSSSWLNVKGPLSPFNSRAAAGPAHHKLSYLGRVVREIVETERMYVQDLRSIVEDYLLKIIDTPGLLKPEQVSALFGNIENIYALNSQLLRDLDSCNSDPVAVASCFVERSQEFDIYTQYCNNYPNSVAALTECMRDKQQAKFFRDRQELLQHSLPLGSYLLKPVQRILKYHLLLQEIAKHFDEEEDGFEVVEDAIDTMTCVAWYINDMKRRHEHAVRLQEIQSLLINWKGPDLTTYGELVLEGTFRVHRVRNERTFFLFDKTLLITKKRGDHFVYKGNIPCSSLMLIESTRDSLCFTVTHYKHSKQQYSIQAKTVEEKRNWTHHIKRLILENHHATIPQKAKEAILEMDSYYPNRYRCSPERLKKAWSSQDEVSTNVRQGRRQSEPTKHLLRQLNEKARAAGMKGKGRRESESSRSSRRPSGRSPTSTEKRMSFESISSLPEVEPDPEAGSEQEVFSAVEGPSAEETPSDTESPEVLETQLDAHQGLLGMDPPGDMVDFVAAESTEDLKALSSEEEEEMGGAAQEPESLLPPSVLDQASVIAERFVSSFSRRSSVAQEDSKSSGFGSPRLVSRSSSVLSLEGSEKGLARHGSATDSLSCQLSPEVDISVGVATEDSPSVNGMEPPSPGCPVEPDRSSCKKKESALSTRDRLLLDKIKSYYENAEHHDAGFSVRRRESLSYIPKGLVRNSISRFNSLPRPDPEPVPPVGSKRQVGSRPTSWALFELPGPSQAVKGDPPPISDAEFRPSSEIVKIWEGMESSGGSPGKGPGQGQANGFDLHEPLFILEEHELGAITEESATASPESSSPTEGRSPAHLARELKELVKELSSSTQGELVAPLHPRIVQLSHVMDSHVSERVKNKVYQLARQYSLRIKSNKPVMARPPLQWEKVAPERDGKSPTVPCLQEEAGEPLGGKGKRKPVLSLFDYEQLMAQEHSPPKPSSAGEMSPQRFFFNPSAVSQRTTSPGGRPSARSPLSPTETFSWPDVRELCSKYASRDEARRAGGGRPRGPPVNRSHSVPENMVEPPLSGRVGRCRSLSTKRGRGGGEAAQSPGPLPQSKPDGGETLYVTADLTLEDNRRVIVMEKGPLPSPTAGLEESSGQGPSSPVALLGQVQDFQQSAECQPKEEGSRDPADPSQQGRVRNLREKFQALNSVG
# modifications: diphosphorylated incl. S1183
# B3: Q93100 2xPhospho [S/T] (protein, UniProt Q93100 2-1093, looked up)
# Phosphorylase b kinase …: AGAAGLTAEVSWKVLERRARTKRSGSVYEPLKSINLPRPDNETLWDKLDHYYRIVKSTLLLYQSPTTGLFPTKTCGGDQKAKIQDSLYCAAGAWALALAYRRIDDDKGRTHELEHSAIKCMRGILYCYMRQADKVQQFKQDPRPTTCLHSVFNVHTGDELLSYEEYGHLQINAVSLYLLYLVEMISSGLQIIYNTDEVSFIQNLVFCVERVYRVPDFGVWERGSKYNNGSTELHSSSVGLAKAALEAINGFNLFGNQGCSWSVIFVDLDAHNRNRQTLCSLLPRESRSHNTDAALLPCISYPAFALDDEVLFSQTLDKVVRKLKGKYGFKRFLRDGYRTSLEDPNRCYYKPAEIKLFDGIECEFPIFFLYMMIDGVFRGNPKQVQEYQDLLTPVLHHTTEGYPVVPKYYYVPADFVEYEKNNPGSQKRFPSNCGRDGKLFLWGQALYIIAKLLADELISPKDIDPVQRYVPLKDQRNVSMRFSNQGPLENDLVVHVALIAESQRLQVFLNTYGIQTQTPQQVEPIQIWPQQELVKAYLQLGINEKLGLSGRPDRPIGCLGTSKIYRILGKTVVCYPIIFDLSDFYMSQDVFLLIDDIKNALQFIKQYWKMHGRPLFLVLIREDNIRGSRFNPILDMLAALKKGIIGGVKVHVDRLQTLISGAVVEQLDFLRISDTEELPEFKSFEELEPPKHSKVKRQSSTPSAPELGQQPDVNISEWKDKPTHEILQKLNDCSCLASQAILLGILLKREGPNFITKEGTVSDHIERVYRRAGSQKLWLAVRYGAAFTQKFSSSIAPHITTFLVHGKQVTLGAFGHEEEVISNPLSPRVIQNIIYYKCNTHDEREAVIQQELVIHIGWIISNNPELFSGMLKIRIGWIIHAMEYELQIRGGDKPALDLYQLSPSEVKQLLLDILQPQQNGRCWLNRRQIDGSLNRTPTGFYDRVWQILERTPNGIIVAGKHLPQQPTLSDMTMYEMNFSLLVEDTLGNIDQPQYRQIVVELLMVVSIVLERNPELEFQDKVDLDRLVKEAFNEFQKDQSRLKEIEKQDDMTSFYNTPPLGKRGTCSYLTKAVMNLLLEGEVKPNNDDPCLIS
# modifications: diphosphorylated
# B4: Q9BUI4 2xPhospho [S204(100); S205(100)] (protein, UniProt Q9BUI4 1-534, looked up)
# DNA-directed RNA polymerase …: MTQAEIKLCSLLLQEHFGEIVEKIGVHLIRTGSQPLRVIAHDTGTSLDQVKKALCVLVQHNLVSYQVHKRGVVEYEAQCSRVLRMLRYPRYIYTTKTLYSDTGELIVEELLLNGKLTMSAVVKKVADRLTETMEDGKTMDYAEVSNTFVRLADTHFVQRCPSVPTTENSDPGPPPPAPTLVINEKDMYLVPKLSLIGKGKRRRSSDEDAAGEPKAKRPKYTTDNKEPIPDDGIYWQANLDRFHQHFRDQAIVSAVANRMDQTSSEIVRTMLRMSEITTSSSAPFTQPLSSNEIFRSLPVGYNISKQVLDQYLTLLADDPLEFVGKSGDSGGGMYVINLHKALASLATATLESVVQERFGSRCARIFRLVLQKKHIEQKQVEDFAMIPAKEAKDMLYKMLSENFMSLQEIPKTPDHAPSRTFYLYTVNILSAARMLLHRCYKSIANLIERRQFETKENKRLLEKSQRVEAIIASMQATGAEEAQLQEIEEMITAPERQQLETLKRNVNKLDASEIQVDETIFLLESYIECTMKRQ
# modifications: phospho S204, S205
# System: HepG2-NTCP cells
# Test: TMT-based phosphoproteome profiling of HBV-infected vs mock HepG2-NTCP (HBV/mock ratio)
# Set-up: species or system human
# Details: phosphosite abundance ratio of host protein, HBV-infected vs mock HepG2-NTCP, 7dpi, sheet Up-regulated
row,Molecule,HBV/mock
1,B1,1.718
2,B2,1.314
3,B3,1.536
4,B4,1.65

# — PMC9104152, “Phosphoproteomics Unravel HBV Triggered Rewiring of Host Phosphosignaling Events” (International Journal of Molecular Sciences, 2022)
